Experimental findings from paper PMC6024821, “Synthesis, Structure and Biological Activity of CIA and CIB, Two α-Conotoxins from the Predation-Evoked Venom of Conus catus” (2018) are described below.

Sequences of proteins named here, by UniProt entry; tags and fusion partners are left off. A change or cut given only in a name is not applied to a line headed by its entry. Residues count along the entry.
UniProt P18916, 23-519 limits assumed: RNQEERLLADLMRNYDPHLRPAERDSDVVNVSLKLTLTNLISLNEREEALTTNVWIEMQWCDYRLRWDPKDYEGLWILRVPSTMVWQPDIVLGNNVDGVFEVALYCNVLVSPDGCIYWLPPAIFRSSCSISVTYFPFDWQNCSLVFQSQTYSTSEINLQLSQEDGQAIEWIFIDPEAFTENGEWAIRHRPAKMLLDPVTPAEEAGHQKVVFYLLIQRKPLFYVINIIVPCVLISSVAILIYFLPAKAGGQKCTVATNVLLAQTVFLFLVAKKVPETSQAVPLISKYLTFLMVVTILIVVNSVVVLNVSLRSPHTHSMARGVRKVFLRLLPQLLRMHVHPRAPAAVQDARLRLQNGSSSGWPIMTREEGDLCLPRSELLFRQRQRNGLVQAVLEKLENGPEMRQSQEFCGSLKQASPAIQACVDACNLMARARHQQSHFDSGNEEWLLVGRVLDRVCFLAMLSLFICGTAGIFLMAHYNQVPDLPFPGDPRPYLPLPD
UniProt P25108, 21-457 limits assumed: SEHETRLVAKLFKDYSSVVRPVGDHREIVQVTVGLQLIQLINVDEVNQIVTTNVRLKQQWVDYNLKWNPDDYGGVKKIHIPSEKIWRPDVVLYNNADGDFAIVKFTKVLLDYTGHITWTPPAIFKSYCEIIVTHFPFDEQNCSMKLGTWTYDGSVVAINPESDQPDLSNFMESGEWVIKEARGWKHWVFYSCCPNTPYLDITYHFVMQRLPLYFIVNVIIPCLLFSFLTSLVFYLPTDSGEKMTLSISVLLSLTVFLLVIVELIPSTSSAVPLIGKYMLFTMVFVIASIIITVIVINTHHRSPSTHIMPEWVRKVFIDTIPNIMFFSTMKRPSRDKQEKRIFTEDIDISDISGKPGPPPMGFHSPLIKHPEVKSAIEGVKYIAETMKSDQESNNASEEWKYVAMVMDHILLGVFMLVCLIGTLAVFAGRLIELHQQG
UniProt P25109, 24-501 partner limits assumed: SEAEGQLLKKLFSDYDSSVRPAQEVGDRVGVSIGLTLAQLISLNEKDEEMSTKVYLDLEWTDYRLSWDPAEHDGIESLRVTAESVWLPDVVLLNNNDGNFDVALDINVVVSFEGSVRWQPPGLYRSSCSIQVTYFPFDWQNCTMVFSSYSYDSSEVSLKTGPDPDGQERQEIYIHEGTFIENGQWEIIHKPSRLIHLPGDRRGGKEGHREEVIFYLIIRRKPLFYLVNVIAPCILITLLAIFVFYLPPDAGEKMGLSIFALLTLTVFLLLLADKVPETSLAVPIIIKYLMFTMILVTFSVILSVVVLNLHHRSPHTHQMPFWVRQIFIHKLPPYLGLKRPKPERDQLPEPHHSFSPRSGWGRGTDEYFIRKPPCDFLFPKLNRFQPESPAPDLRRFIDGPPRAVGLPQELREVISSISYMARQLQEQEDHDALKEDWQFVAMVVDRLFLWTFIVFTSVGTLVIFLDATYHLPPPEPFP
UniProt P25110, 22-517 limits assumed: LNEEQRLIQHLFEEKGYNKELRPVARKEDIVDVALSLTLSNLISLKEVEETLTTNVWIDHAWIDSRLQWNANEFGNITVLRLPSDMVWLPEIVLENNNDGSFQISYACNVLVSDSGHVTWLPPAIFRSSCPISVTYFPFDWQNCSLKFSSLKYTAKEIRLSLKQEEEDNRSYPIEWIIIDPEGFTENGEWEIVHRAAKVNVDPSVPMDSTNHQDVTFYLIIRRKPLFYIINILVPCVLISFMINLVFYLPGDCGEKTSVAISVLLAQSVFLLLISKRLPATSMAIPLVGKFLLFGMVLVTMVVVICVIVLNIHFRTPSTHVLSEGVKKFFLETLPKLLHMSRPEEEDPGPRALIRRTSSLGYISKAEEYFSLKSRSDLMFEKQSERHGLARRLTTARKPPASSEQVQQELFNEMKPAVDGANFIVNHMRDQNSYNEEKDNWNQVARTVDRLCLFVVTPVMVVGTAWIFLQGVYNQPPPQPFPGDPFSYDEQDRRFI
UniProt P04757, 26-499 limits assumed: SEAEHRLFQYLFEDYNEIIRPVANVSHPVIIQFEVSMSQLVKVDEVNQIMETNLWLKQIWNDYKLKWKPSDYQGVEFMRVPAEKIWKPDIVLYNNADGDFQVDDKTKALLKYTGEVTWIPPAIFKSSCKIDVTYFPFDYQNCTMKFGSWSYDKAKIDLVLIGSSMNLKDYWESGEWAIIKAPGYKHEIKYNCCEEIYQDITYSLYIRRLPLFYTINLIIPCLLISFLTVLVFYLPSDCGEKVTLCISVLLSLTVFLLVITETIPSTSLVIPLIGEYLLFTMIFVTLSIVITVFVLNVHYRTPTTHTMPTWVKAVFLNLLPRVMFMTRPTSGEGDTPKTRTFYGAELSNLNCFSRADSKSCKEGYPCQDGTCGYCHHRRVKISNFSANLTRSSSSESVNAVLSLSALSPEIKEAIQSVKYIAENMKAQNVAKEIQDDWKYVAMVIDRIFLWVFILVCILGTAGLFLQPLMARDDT
UniProt P12390, 25-500 limits assumed: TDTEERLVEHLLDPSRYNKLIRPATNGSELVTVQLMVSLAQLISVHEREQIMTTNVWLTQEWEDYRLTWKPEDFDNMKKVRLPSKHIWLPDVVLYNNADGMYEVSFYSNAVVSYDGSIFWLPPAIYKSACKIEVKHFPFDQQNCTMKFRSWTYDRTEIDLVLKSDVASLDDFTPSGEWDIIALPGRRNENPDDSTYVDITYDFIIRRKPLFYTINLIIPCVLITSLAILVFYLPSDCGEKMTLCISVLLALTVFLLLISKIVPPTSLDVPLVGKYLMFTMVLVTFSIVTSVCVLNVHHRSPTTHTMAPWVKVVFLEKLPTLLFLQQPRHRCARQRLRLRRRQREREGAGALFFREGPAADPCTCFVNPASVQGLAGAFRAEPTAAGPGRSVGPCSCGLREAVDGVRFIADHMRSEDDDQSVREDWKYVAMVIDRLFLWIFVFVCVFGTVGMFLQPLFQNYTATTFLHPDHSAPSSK
UniProt Q05941, 23-502 limits assumed: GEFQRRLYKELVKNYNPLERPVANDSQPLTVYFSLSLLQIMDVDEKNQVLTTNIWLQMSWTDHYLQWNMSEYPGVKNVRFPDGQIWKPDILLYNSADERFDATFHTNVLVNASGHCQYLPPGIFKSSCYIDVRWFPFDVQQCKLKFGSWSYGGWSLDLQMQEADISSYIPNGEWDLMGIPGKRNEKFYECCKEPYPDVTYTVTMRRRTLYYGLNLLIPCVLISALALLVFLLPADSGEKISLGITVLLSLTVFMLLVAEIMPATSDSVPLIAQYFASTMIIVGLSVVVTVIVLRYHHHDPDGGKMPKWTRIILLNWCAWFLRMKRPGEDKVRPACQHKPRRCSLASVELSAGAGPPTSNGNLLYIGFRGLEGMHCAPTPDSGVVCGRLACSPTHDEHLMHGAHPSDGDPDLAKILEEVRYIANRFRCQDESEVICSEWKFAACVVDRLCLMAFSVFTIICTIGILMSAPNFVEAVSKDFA

Assay [1] addresses muscle type (α1)2δγβ1 nAChR (Rattus norvegicus, UniProt P18916+P25108+P25109+P25110). The conditions noted are these: rat (α1)2δγβ1 in Xenopus laevis oocytes.
Assay [2] has as its target neuronal nAChR subtype α3β2 (Rattus norvegicus, UniProt P04757+P12390). The conditions noted are these: read-out: IC50, inhibition of neuronal nAChR α3β2; rat α3β2 in Xenopus laevis oocytes; -70 mV; 2-s pulses of 100 µM ACh; 3-min preincubation with toxin in static bath; ND96 pH 7.4; Hill fit; mean of at least 3 oocytes.
Assay [3] has as its target neuronal nAChR subtype α7 (Rattus norvegicus, UniProt Q05941). The conditions noted are these: read-out: IC50, inhibition of neuronal nAChR α7; rat α7 in Xenopus laevis oocytes; -70 mV; 2-s pulses of 100 µM nicotine; 3-min preincubation with toxin in static bath; ND96 pH 7.4; Hill fit; mean of at least 3 oocytes.
Assay [4] concerns neuronal nAChR subtype α4β2. The conditions noted are these: at concentrations up to 10 μM; rat α4β2 in Xenopus laevis oocytes; 100 µM ACh; 3-min preincubation.

Molecules are shown by their SMILES. “And” between values parts separate entries of the source, which are not always exact repeats. Identical values can stand only once.

In general, IC50 refers to the concentration that gives 50% inhibition. For the molecule `CC(C)C[C@@H]1NC(=O)[C@H](Cc2c[nH]cn2)NC(=O)[C@@H]2CSSC[C@H](NC(=O)CN)C(=O)N[C@@H](CSSC[C@@H](C(N)=O)NC(=O)[C@H](C)NC(=O)[C@H](CC(N)=O)NC(=O)[C@@H]3CCCN3C(=O)[C@H](Cc3c[nH]cn3)NC(=O)[C@H](CCC(=O)O)NC1=O)C(=O)N[C@@H](CO)C(=O)N[C@@H](CC(N)=O)C(=O)N1CCC[C@H]1C(=O)N[C@@H](C(C)C)C(=O)N2`, in assay [1] (at concentrations up to 10 μM, 100 µM ACh, 3-min preincubation), the “activity on muscle nAChR” value is “No activity was detected”. Besides, the IC50 amounted to 0.129 µM in assay [2] and 1.51 µM in assay [3]. Also, in assay [4], the “activity on α4β2 nAChR” value was “No activity was detected”.

Turning to `C[C@@H]1NC(=O)[C@@H]2CCCN2C(=O)[C@H](Cc2c[nH]cn2)NC(=O)[C@@H]2CSSC[C@@H](C(N)=O)NC(=O)[C@H](CO)NC(=O)[C@H](Cc3ccccc3)NC(=O)[C@H](Cc3c[nH]cn3)NC(=O)[C@H](CCCCN)NC(=O)CNC(=O)[C@H](CSSC[C@H](NC(=O)[C@H](CCCNC(=N)N)NC(=O)CNC(=O)[C@@H](N)CC(N)=O)C(=O)N2)NC1=O`, in assay [1] (read-out: IC50, block of muscle type nAChR, -70 mV, 2-s pulses of 100 µM ACh, 3-min preincubation with toxin in static bath, ND96 pH 7.4, Hill fit, mean of at least 3 oocytes), the IC50 was 0.0057 µM and 0.005 µM.
